Results deposited as PubChem BioAssay AID504761 (Drosophila RNAi Screening Center, 2011).
The screen tested about 22,000 reagents; shown is a random part of those with a known target gene and a result. In the full data, 116 (0.52%) are marked active. 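Calls depend on retest data that are not deposited; infection was ranked per plate without normalising between plates; the unit of the infection score is not given.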 Not all columns of the deposit are shown. No sequences are given here. Not stated in the record: the amount of reagent, the time to read-out.

Purpose: 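Insect host genes that dengue virus relies on to spread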 (primary screen)
Cell system: D.Mel-2 cells from Drosophila
Reagent: long dsRNA against Drosophila genes
Treatment: infection with dengue virus type 2; dose and infection time not stated
Measured: 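Per well on two replicate plates, imaging gave the percent of cells positive for viral envelope protein, ranked by infection, and a nuclear count of cells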
Scale: infection score: higher = more virus-infected cells
Active means: 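Very low infection ranking in both replicate wells (chance probability at most 0.065), then a retest showing infection dropped 1.5-fold or more at p below 0.05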
Meaning of the calls: active = confirmed: knock-down lowers infection; inactive = not picked or not confirmed

predicted target | dsRNA | infection score, replicate 1 | Call
CG2082 | DRSC12125 | 14.9 | inactive
CG2082 | DRSC26456 | 6.8 | inactive
Gsc | DRSC00755 | 30.7 | inactive
Gsc | DRSC25752 | 3.95 | inactive
CG9752 | DRSC04562 | 12.4 | inactive
CG5347 | DRSC19942 | 38.3 | inactive
CG9331 | DRSC03206 | 18.3 | inactive
CG9331 | DRSC28815 | 12.3 | inactive
CG7365 | DRSC10824 | 17.5 | inactive
CG7365 | DRSC28680 | 4.61 | inactive
lncRNA:CR42862 | DRSC08348 | 10.5 | inactive
lncRNA:CR42862 | DRSC27596 | 4.36 | inactive
lncRNA:CR42862 | DRSC36563 | 1.9 | inactive
RpS12 | DRSC11270 | 12.2 | inactive
Peritrophin-15a | DRSC02636 | 4.31 | inactive
Peritrophin-15a | DRSC29171 | 11.2 | inactive
betaNACtes4 | DRSC19801 | 20 | inactive
CG10553 | DRSC14254 | 3.95 | inactive
Rm62 | DRSC12365 | 10.8 | inactive
Rm62 | DRSC25109 | 5.55 | inactive
Sf3a1 | DRSC15166 | 2.74 | inactive
PyK | DRSC16806 | 1.64 | inactive
PyK | DRSC27033 | 2.79 | inactive

Sorted by “infection score, replicate 1” (highest first): some entries from above.
predicted target | dsRNA | infection score, replicate 1 | Call
lncRNA:CR42862 | DRSC08348 | 10.5 | inactive
lncRNA:CR42862 | DRSC27596 | 4.36 | inactive
